Measured values from several laboratories, pooled; numbers as filed in NIAID ChemDB.

Shared fields: tests in culture; organism: Candida albicans; measure: MIC

An empty or dashed field is not shown.

| SMILES | method | strain | value |
|---|---|---|---|
| CCCNC(=O)n1[se]c2ccccc2c1=O | agar |  | 9 µg/mL |
| CCCCN(CCCC)CCCCOc1cc(O)c2c(=O)c(-c3ccc(O)cc3)coc2c1 | MTT |  | >50 µg/mL |
| CCCCn1[se]c2ccccc2c1=O | agar |  | 1 µg/mL |
| O=c1c(-c2ccc(O)cc2)coc2cc(OCCCCBr)cc(O)c12 | MTT |  | >50 µg/mL |
| Cc1c(N2CCC[C@@H](N)C2)c(F)cn2c(=O)c(C(=O)O)cc(C3CC3)c12 |  | CCH442 | >100 µg/mL |
| Clc1nc(NC2CC2)nc(N2CCC(Cc3ccccc3)CC2)n1 | agar | MTCC 183 | 100 µg/mL |
| Cc1ccc(-c2cc(-c3ccc4oc(=O)c(-c5ccccc5)c(C)c4c3)nc3c2oc2ccccc23)cc1 | broth dilution / turbidity | MTCC 227 | 250 µg/mL |
| CCOC(=O)n1[se]c2ccccc2c1=O | agar |  | 129 µg/mL |
| CC[C@H](NC)[C@@H]1CCN(c2c(F)cn3c(=O)c(C(=O)O)cc(C4CC4)c3c2C)C1.Cl |  | CCH442 | 100 µg/mL |
| Clc1ccc(C(c2ccccc2)N2CCN(c3nc(Cl)nc(NC4CC4)n3)CC2)cc1 | agar | MTCC 183 | 50 µg/mL |
| Cc1c(N2CCC(C)(N)C2)c(F)cn2c(=O)c(C(=O)O)cc(C3CC3)c12.Cl |  | CCH442 | >100 µg/mL |
| COC(OC)C(C)n1[se]c2ccccc2c1=O | agar |  | >512 µg/mL |
| CN1CCN(c2nc(NCCNc3ncnc4c(Br)cc(Br)cc34)nc(NC3CC3)n2)CC1 | agar | MTCC 183 | 100 µg/mL |
| CCC(C)CC(C)CCCCCCCCC(=O)N[C@H]1C[C@@H](O)[C@H](NCCN)NC(=O)[C@@H]2[C@@H](O)CCN2C(=O)[C@H]([C@H](O)CCN)NC(=O)[C@H]([C@H](O)[C@@H](O)c2ccc(O)cc2)NC(=O)[C@@H]2C[C@@H](O)CN2C(=O)[C@H]([C@@H](C)O)NC1=O | resazurin | DSY3987 | 0.63 µg/mL |
| O=c1c(-c2ccc(O)cc2)coc2cc(OCCn3cnc4ccccc43)cc(O)c12 | MTT |  | >50 µg/mL |
| CCC(C)n1ncn(-c2ccc(N3CCN(c4ccc(OC[C@H]5CO[C@](Cn6cncn6)(c6ccc(Cl)cc6Cl)O5)cc4)CC3)cc2)c1=O |  | Isogenic isolate 15 Erg11 (4-5X) R467K | 0.06 µg/mL |
| COC(=O)Cn1[se]c2ccccc2c1=O | agar |  | 135 µg/mL |
| NCCCC(N)CC(=O)NC1C(NC2=N[C@@H]3C(=O)NC[C@@H](O)[C@H]3N2)OC(CO)C(OC(N)=O)C1O | resazurin | SC5314 | 2.5 µg/mL |
| O=c1c(-c2ccc(O)cc2)coc2cc(OCCCN3CCCC3)cc(O)c12 | MTT |  | 20.5 µg/mL |
| C=CCc1ccc(O)c(-c2ccc(O)c(CC=C)c2)c1 | broth dilution | YL 371 | 64 µg/mL |
| C=C1OC(=O)c2c(OC)cc(OC)c(C)c21 | broth dilution / absorbance | NCPF3153 | >128 µg/mL |
| Cc1c(N2CCCC(n3cccc3)C2)c(F)cn2c(=O)c(C(=O)O)cc(C3CC3)c12 |  | CCH442 | >100 µg/mL |
| O=c1c(-c2ccc(O)cc2)coc2cc(OCCCN3CCCCC3)cc(O)c12 | MTT |  | >50 µg/mL |
| Clc1cccc(N2CCN(c3nc(NCCNc4ncnc5c(Br)cc(Br)cc45)nc(NC4CC4)n3)CC2)c1 | agar | MTCC 183 | 100 µg/mL |
| CN1CCN(CCCCOc2cc(O)c3c(=O)c(-c4ccc(O)cc4)coc3c2)CC1 | MTT |  | >50 µg/mL |
| Cc1c(N2CCc3c(N)cccc3C2)c(F)cn2c(=O)c(C(=O)O)cc(C3CC3)c12.Cl |  | CCH442 | >100 µg/mL |
| Cc1c(-c2ccccc2)c(=O)oc2ccc(-c3cc(-c4ccccc4)c4c(n3)-c3ccccc3CC4)cc12 | broth dilution / turbidity | MTCC 227 | >1000 µg/mL |
| Clc1nc(NC2CC2)nc(N2CCN(c3cccc(Cl)c3Cl)CC2)n1 | agar | MTCC 183 | 100 µg/mL |
| O=c1c2ccccc2[se]n1C(CO)CO | agar |  | 272 µg/mL |
| Cc1c(-c2ccccc2)c(=O)oc2ccc(-c3cc(-c4ccc(F)cc4)c4c(n3)-c3ccccc3CC4)cc12 | broth dilution / turbidity | MTCC 227 | 1000 µg/mL |
| CCn1[se]c2ccccc2c1=O | agar |  | 2 µg/mL |
| CCCN(CCC)CCCCOc1cc(O)c2c(=O)c(-c3ccc(O)cc3)coc2c1 | MTT |  | >50 µg/mL |
| Cc1c(N2CCC(C)(N)CC2)c(F)cn2c(=O)c(C(=O)O)cc(C3CC3)c12.Cl |  | CCH442 | >100 µg/mL |
| COc1ccc(-c2cc(-c3ccc4oc(=O)c(-c5ccccc5)c(C)c4c3)nc3c2oc2ccccc23)cc1OC | broth dilution / turbidity | MTCC 227 | 200 µg/mL |

2 of the rows above, restated:

SMILES | method | strain | value
C=CCc1ccc(O)c(-c2ccc(O)c(CC=C)c2)c1 | broth dilution | YL 371 | 64 µg/mL
O=c1c(-c2ccc(O)cc2)coc2cc(OCCCN3CCCCC3)cc(O)c12 | MTT |  | >50 µg/mL

Lines come from different laboratories, so protocols vary.